Species: Mus musculus
Assay: Acute toxicity in Mus musculus (mouse)
Assay type: organism-based
Conditions: in vivo

`CCOP(=O)(SC(C)CC)N1CC(=O)N(C)C1=O` (configuration not stated) gave an LD50 of 39 mg/kg.
In the case of `CCCSP(=O)(Nc1ncc(C(F)(F)F)cc1Cl)OCC` (configuration not stated), the LD50 is reported as under 30 mg/kg.

— ChEMBL document CHEMBL3044645, “Synthesis and Pesticidal Activities of N-Phosphinoyl Heterocycles” (J Pestic Sci, 1997)
